Pooled drug test results. Numbers come from NIAID ChemDB, via PubChem.

Shared fields: whole-cell or culture tests; organism: Mycobacterium avium complex; endpoint: MIC90

MIC50, MIC90 and the like: level of inhibition, or share of isolates inhibited. Conditions beyond the fields shown may differ between rows. Blank or dashed fields: not listed here.

| smiles | strain or isolate | value |
|---|---|---|
| C[C@@H]1CN(c2c(F)c(N)c3c(=O)c(C(=O)O)cn(C4CC4)c3c2F)C[C@H](C)N1 | 20 strains | 0.5 µg/mL |
| CC[C@H]1OC(=O)C[C@@H](O)[C@H](C)[C@@H](O[C@@H]2O[C@H](C)[C@H](O)[C@H](N(C)C)[C@H]2O)[C@@H](CCOc2ccccc2)C[C@@H](C)C(=O)/C=C/C(C)=C/[C@@H]1COC1O[C@H](C)[C@@H](O)[C@@H](OC)[C@H]1OC | 28 strains | ≥64 µg/mL |
| O[C@@H](c1cc2ccc(C(F)(F)F)cc2c2cc(C(F)(F)F)ccc12)[C@@H]1CCCCN1 | 24 clinical isolates | 4 µg/mL |
| C[C@H]1COc2c(N3CCN(C)CC3)c(F)cc3c(=O)c(C(=O)O)cn1c23 | 53 strains | 12.5 µg/mL |
| N[C@@H]1CN(c2c(F)cc3c(=O)c(C(=O)O)cn([C@@H]4C[C@@H]4F)c3c2Cl)CC12CC2 | 18 strains | 12.5 µg/mL |
| CC(=O)NC[C@H]1CN(c2ccc(N3CCN(Cc4ccc([N+](=O)[O-])o4)CC3)c(F)c2)C(=O)O1 | 31 isolates | 32 µg/mL |
| O=C(O)c1cn(N2CCSCC2)c2cc(NC3CC3)c([N+](=O)[O-])cc2c1=O |  | 5.8 µM |
| NC[C@H]1O[C@H](O[C@H]2[C@H](O)[C@@H](O[C@H]3O[C@H](CO)[C@@H](O)[C@H](N)[C@H]3O)[C@H](N)C[C@@H]2N)[C@H](O)[C@@H](O)[C@@H]1O | 25 isolates | >64 µg/mL |
| CC[C@H]1OC(=O)[C@H](C)[C@@H](O[C@H]2C[C@@](C)(OC)[C@@H](O)[C@H](C)O2)[C@H](C)[C@@H](O[C@@H]2O[C@H](C)C[C@H](N(C)C)[C@H]2O)[C@](C)(OC)C[C@@H](C)C(=O)[C@H](C)[C@@H](O)[C@]1(C)O | 19 strains (HIV+) | 16 µg/mL |
| C[C@H]1CN(c2c(F)cc3c(=O)c(C(=O)O)cn(C4CC4)c3c2OC(F)F)CCN1 | 53 strains | 3.13 µg/mL |
| C=C(C)CC[C@H]1CN(c2ccn(N3CCOCC3)c2)C(=O)O1 |  | >100 µM |
| Cc1c(F)c(N2CCNC(C)C2)cc2c1c(=O)c(C(=O)O)cn2C1CC1 | 41 clinical isolates | 16 µg/mL |
| C[C@@H]1CN(c2c(F)c(N)c3c(=O)c(C(=O)O)cn(C4CC4)c3c2F)C[C@H](C)N1 | 18 strains | 12.5 µg/mL |
| NC[C@H]1O[C@H](O[C@H]2[C@H](O)[C@@H](O[C@H]3O[C@H](CO)[C@@H](O)[C@H](N)[C@H]3O)[C@H](N)C[C@@H]2N)[C@H](N)C[C@@H]1O | 25 isolates | >64 µg/mL |
| O[C@H](c1cc2ccc(C(F)(F)F)cc2c2cc(C(F)(F)F)ccc12)[C@H]1CCCCN1 | 24 clinical isolates | 4 µg/mL |
| C[C@@H]1CN(c2c(F)c(N)c3c(=O)c(C(=O)O)cn(C4CC4)c3c2F)C[C@H](C)N1 | 25 isolates | 8 µg/mL |
| C[C@H]1NCc2cc(-c3ccc4c(=O)c(C(=O)O)cn(C5CC5)c4c3OC(F)F)ccc21 | 8 strains | 16 µg/mL |
| CC1COc2c(N3CCN(C)CC3)c(F)cc3c(=O)c(C(=O)O)cn1c23 | 25 isolates | >8 µg/mL |
| CC(C)NC(=O)N1CCC(CN=c2cc3n(-c4ccc(Cl)cc4)c4ccccc4nc-3cc2Nc2ccc(Cl)cc2)CC1 | 5 strains | 2 µg/mL |
| C[C@H]1COc2c(N3CCN(C)CC3)c(F)cc3c(=O)c(C(=O)O)cn1c23 | 25 isolates | >8 µg/mL |
| COc1c(N2CCC(n3ccnn3)C2)c(F)cc2c(=O)c(C(=O)O)cn(C3CC3)c12 | 24 strains | >16 µg/mL |
| CN1CCN(CCCN=c2cc3n(-c4ccc(Cl)cc4)c4ccccc4nc-3cc2Nc2ccccc2)CC1 | 10 strains (HIV+) | 3.3 µg/mL |
| CC1COc2c(N3CCN(C)CC3)c(F)cc3c(=O)c(C(=O)O)cn1c23 | 53 strains | 25 µg/mL |
| CC[C@H]1OC(=O)[C@H](C)[C@@H](O[C@H]2C[C@@](C)(OC)[C@@H](O)[C@H](C)O2)[C@H](C)[C@@H](O[C@@H]2O[C@H](C)C[C@H](N(C)C)[C@H]2O)[C@](C)(O)C[C@@H](C)CN(C)[C@H](C)[C@@H](O)[C@]1(C)O | 28 strains | 32 µg/mL |
| CC[C@H]1OC(=O)[C@H](C)C(=O)[C@H](C)[C@@H](O[C@@H]2O[C@H](C)C[C@H](N(C)C)[C@H]2O)[C@](C)(OC)C[C@@H](C)C(=O)[C@H](C)[C@H]2N(CCCCc3ccccc3)C(=O)O[C@]12C | 24 strains (HIV+) | 27 µg/mL |
| CO[C@H]1/C=C/O[C@@]2(C)Oc3c(C)c(O)c4c(O)c(c(N5CCN(Cc6c(C)cc(C)cc6C)CC5)c(O)c4c3C2=O)NC(=O)/C(C)=C\C=C\[C@H](C)[C@H](O)[C@@H](C)[C@@H](O)[C@@H](C)[C@H](OC(C)=O)[C@@H]1C | 67 strains (HIV+) | 0.5 µg/mL |
| CC(C)(C)n1cc(C(=O)O)c(=O)c2cc([N+](=O)[O-])c(N3CCOCC3)cc21 |  | 50 µM |
| CCn1cc(C(=O)O)c(=O)c2cc(F)c(N3CCN(C)CC3)cc21 | 89 isolates | >16 µg/mL |
| Cc1cc(-c2cc3c(cc2F)c(=O)c(C(=O)O)cn3C2CC2)cc(C)n1 | 30 strains | 1 µg/mL |
| O=C(O)c1cn(C2CC2)c2c(Cl)c(N3C[C@@H]4CCCN[C@@H]4C3)c(F)cc2c1=O | 101 | 1 µg/mL |
| CC[C@H]1OC(=O)[C@H](C)[C@@H](O[C@H]2C[C@@](C)(OC)[C@@H](OC(C)=O)[C@H](C)O2)[C@H](C)[C@@H](O[C@@H]2O[C@H](C)C[C@H](N(C)C)[C@H]2O)C(C)(O)C[C@@H](C)/C(=N\OCCCC2CCCCC2)[C@H](C)[C@@H](O)[C@]1(C)O | 27 strains | 1.56 µg/mL |
| COc1cccc2c1[n+]([O-])c1cccc(O)c1[n+]2[O-] | 5 strains | 0.25 µg/mL |
| C[C@@H]1CN(c2c(F)c(N)c3c(=O)c(C(=O)O)cn(C4CC4)c3c2F)C[C@H](C)N1 |  | 6.25 µg/mL |
| CO[C@H]1/C=C/O[C@@]2(C)Oc3c(C)c(O)c4c(O)c(c5c(c4c3C2=O)NC2(CCN(CC(C)C)CC2)N=5)=NC(=O)/C(C)=C\C=C\[C@H](C)[C@H](O)[C@@H](C)[C@@H](O)[C@@H](C)[C@H](OC(C)=O)[C@@H]1C | 211 strains | 1.53 µg/mL |
| O=C(O)c1cn(N2CCOCC2)c2cc(NC3CC3)c([N+](=O)[O-])cc2c1=O |  | 8.9 µM |
| CC[C@H]1OC(=O)C[C@@H](O)[C@H](C)[C@@H](O[C@@H]2O[C@H](C)[C@H](O)[C@H](N(C)C)[C@H]2O)[C@@H](CC=O)C[C@@H](C)C(=O)/C=C/C(C)=C/[C@@H]1COC(C)=O | 28 strains | ≥64 µg/mL |
| CC1COc2c(N3CCN(C)CC3)c(F)cc3c(=O)c(C(=O)O)cn1c23 | 18 strains | 50 µg/mL |
| O=C(N1CCC(CN=c2cc3n(-c4ccc(Cl)cc4)c4ccccc4nc-3cc2Nc2ccc(Cl)cc2)CC1)N1CC1 | 5 strains | 4 µg/mL |
| CC1(C)N=C(N)N=C(N)N1OCCCOc1cc(Cl)c(Cl)cc1Cl | 31 strains | 4 µg/mL |
| CO[C@H]1/C=C/O[C@@]2(C)Oc3c(C)c(O)c4c(=O)c(c5oc6cc(N7CCN(CC(C)C)CC7)cc(=O)c6nc5c4c3=C2O)NC(=O)/C(C)=C\C=C\[C@H](C)[C@H](O)[C@@H](C)[C@@H](O)[C@@H](C)[C@H](OC(C)=O)[C@@H]1C |  | 0.25 µg/mL |

The first 2 rows once more:

C[C@@H]1CN(c2c(F)c(N)c3c(=O)c(C(=O)O)cn(C4CC4)c3c2F)C[C@H](C)N1 ; strain or isolate: 20 strains ; value: 0.5 µg/mL
CC[C@H]1OC(=O)C[C@@H](O)[C@H](C)[C@@H](O[C@@H]2O[C@H](C)[C@H](O)[C@H](N(C)C)[C@H]2O)[C@@H](CCOc2ccccc2)C[C@@H](C)C(=O)/C=C/C(C)=C/[C@@H]1COC1O[C@H](C)[C@@H](O)[C@@H](OC)[C@H]1OC ; strain or isolate: 28 strains ; value: ≥64 µg/mL